Test results taken from paper PMC6271011, “Synthesis, Leishmanicidal and Cytotoxic Activity of Triclosan-Chalcone, Triclosan-Chromone and Triclosan-Coumarin Hybrids” (Molecules, 2014).

System: intracellular amastigotes of L. (V) panamensis
Experiment: Leishmanicidal activity against intracellular amastigotes (GFP, flow cytometry, 72 h)
Format: cell-based, Leishmania (Viannia) panamensis
Conditions: LC50 U-937 / EC50 intracellular amastigotes
Description: The leishmanicidal activity of compounds was evaluated on intracellular amastigotes of L. panamensis transfected with the green fluorescent protein gene (MHOM/CO/87/UA140pIR-GFP). Effect of each compound was determined according to the inhibition of the infection evidenced by both decrease of the infected cells and decrease of intracellular parasite load. Briefly, U-937 human cells at a concentration of 3 × 10^5 cells/mL in RPMI 1640 and 0.1 μg/mL of PMA (phorbol-12-myristate-13-acetate) were infected with promastigotes in stationary phase growth in a 15:1 parasites per cell ratio and incubated at 34 °C and 5% CO2 for 3 h. […]
After 24 h of infection, the culture medium was replaced by fresh culture medium containing each compound at concentrations of 20 μg/mL. […] Supernatant was discarded and cells were suspended in 500 μL of PBS and analyzed by flow cytometry (FC 500MPL, Cytomics, Brea, CA, USA) counting 20.000 events. […]
Antileishmanial activity was determined according to percentage of infected cells and parasite load obtained for each experimental condition by the cytometer. Percentage of infected cells was determined as the number of positive events by double fluorescence (green for parasites and red for cells) using dotplot analysis. On the other hand, the parasitic load was determined by analysis of mean fluorescence intensity (MFI). […]

| Substance | SI (Selectivity Index = LC50/EC50) |
| --- | --- |
| 3,4-dimethoxy-4'-hydroxychalcone [3,4-Dimethoxy-4'-hydroxychalcone (6)] | 0.7 |
| meglumine antimoniate [Sb(V)] | 78.7 |
